A mixed list of measured activities; the numbers were collected in NIAID ChemDB.

All rows: host cell toxicity; cells: CEM; measure: CC50

Lines come from different laboratories, so protocols vary. Two numbers with a dash give a range or band. CCn: concentration that lowers growth or viability of the cells by n%.

compound,value
O=c1[nH]c(=O)n([C@@H]2O[C@H](CO)[C@@H](O)[C@@H]2F)cc1C12B3B4B5B6B(B3B1B42)B1B5C61,56.5 µM
Cc1cn([C@H]2C[C@H](N=[N+]=[N-])[C@@H](CN3C(=O)c4ccc(C(=O)OCC56CC7CC(CC(C7)C5)C6)cc4C3=O)O2)c(=O)[nH]c1=O,>160 µM
C[C@H](Cn1cnc2c(N)ncnc21)OCP(=O)(O)O,410 µM
O=c1[nH]c(=O)n([C@H]2C[C@H](F)[C@@H](CO)O2)cc1/C(Br)=C/I,31.6 µM
CCn1c(=O)c(C)cn([C@@H]2O[C@H](CO[Si](C)(C)C(C)(C)C)[C@@]3(NS(=O)(=O)C=C3N)[C@H]2O[Si](C)(C)C(C)(C)C)c1=O,4.9 µM
CNc1ncnc2c1ncn2[C@@H]1O[C@H](CO[Si](C)(C)C(C)(C)C)C2(OS(=O)(=O)C=C2N)[C@H]1O[Si](C)(C)C(C)(C)C,7.8 µg/mL
CCCCCCCCCCCCCC(=O)OP(=O)(O)OC[C@H]1O[C@@H](n2cc(C)c(=O)[nH]c2=O)C[C@@H]1N=[N+]=[N-],>20 µM
C[C@@H](Cn1cnc2c(N)nc(N)nc21)OCP(=O)(O)O,>300 µM
Cc1cn([C@H]2C[C@H](N=[N+]=[N-])[C@@H](COP(=O)(OCCC#N)O[C@H]3CC[C@@]4(C)C(=CC[C@@H]5[C@@H]4CC[C@]4(C)C([C@H](C)CCCC(C)C)CC[C@@H]54)C3)O2)c(=O)[nH]c1=O,>200 µM
CN=C1CN=C(c2ccc[nH]2)c2cc(Cl)ccc2N1,>40 µM
[N-]=[N+]=N[C@H]1C[C@H](n2cc(/C(Br)=C\I)c(=O)[nH]c2=O)O[C@@H]1CO,30.6 µM
Cc1cn([C@H]2C[C@H](N=[N+]=[N-])[C@@H](CN3C(=O)c4cccc([N+](=O)[O-])c4C3=O)O2)c(=O)[nH]c1=O,>200 µM
Nc1ncnc2c1ncn2CCOCP(=O)(O)O,35.8 µM
[N-]=[N+]=N[C@H]1C[C@H](n2cc(/C(I)=C\I)c(=O)[nH]c2=O)O[C@@H]1CO,30.7 µM
OC[C@H]1O[C@@H](n2c(=S)[nH]c3cc(Cl)c(Cl)cc32)[C@H](O)[C@@H]1O,>100 µM
CCOP(=O)(CO[C@H]1C[C@@H](n2cnc3c(Cl)nc(N)nc32)C(F)(F)C1)OCC,>100 µM
Cc1cn([C@H]2C=C[C@@H](COP3(=O)OCc4cc(C=O)ccc4O3)O2)c(=O)[nH]c1=O,113 µM
Cc1cn([C@H]2C[C@H](N=[N+]=[N-])[C@@H](CN3C(=O)c4ccccc4C3=O)O2)c(=O)[nH]c1=O,≥230 µM
CC(C)(C)[Si](C)(C)OC[C@H]1O[C@@H](n2cnc3c(=O)[nH]cnc32)[C@H](O[Si](C)(C)C(C)(C)C)C12OS(=O)(=O)C=C2N,7.7 µg/mL
CC(C)=CCN1Cc2cccc3[nH]c(=S)n(c23)C[C@@H]1C,421 µM
N#C/C(=C\c1cc(O)c(O)c(O)c1)C(=O)NCCCCCNC(=O)/C(C#N)=C/c1cc(O)c(O)c(O)c1,38.3 µM
Cc1cn([C@H]2C[C@H](F)[C@@H](COP(=O)(O)O)O2)c(=S)[nH]c1=O,>200 µM
O=c1[nH]c(=O)n([C@H]2C[C@H](F)[C@@H](CO)O2)cc1Cl,>500 µM
Nc1nc(=O)n([C@@H]2CC[C@H](CO)O2)cc1F,67 µM
Nc1nc(=O)n([C@@H]2O[C@H](CO)C[C@H]2F)cc1F,>100 µM
Cc1cccc2c1OP(=O)(OC[C@@H]1C=C[C@H](n3cc(C)c(=O)[nH]c3=O)O1)OC2,32 µM
Cc1cn([C@H]2C[C@H](N=[N+]=[N-])[C@@H](CO)O2)c(=O)[nH]c1=O,>500 µM
COc1ncnc2c1ncn2[C@@H]1O[C@H](CO[Si](C)(C)C(C)(C)C)C2(OS(=O)(=O)C=C2N)[C@H]1O[Si](C)(C)C(C)(C)C,9.9 µg/mL
Cc1cn(COC(CO)CN=[N+]=[N-])c(=O)[nH]c1=O,0.05–100 µM
Nc1ccn([C@@H]2C=C[C@H](CO)O2)c(=O)n1,20 µM
Cc1cn([C@@H]2O[C@H](CO[Si](C)(C)C(C)(C)C)[C@@]3(NS(=O)(=O)C=C3N)[C@H]2O[Si](C)(C)C(C)(C)C)c(=O)n(C)c1=O,5.8 µM
Cc1cn([C@H]2C[C@H](N=[N+]=[N-])[C@@H](COC(=O)C3CCC4C5CCC6=CC(=O)CCC6(C)C5C(O)CC34C)O2)c(=O)[nH]c1=O,>20 µM
CC(=O)OC(OC(C)=O)c1ccc2c(c1)COP(=O)(OC[C@@H]1C=C[C@H](n3cc(C)c(=O)[nH]c3=O)O1)O2,99 µM
Nc1cc(OCCOCP(=O)(O)O)nc(N)n1,42 µM
Nc1nc(Cl)nc2c1ncn2[C@H]1CC[C@@H](CO)O1,3 µM
Cc1cn([C@H]2C[C@H](F)[C@@H](CO)O2)c(=S)[nH]c1=O,>200 µM
COc1ccc(COCC(O)COCc2ccccc2)cc1,0.05–100 µM
Cc1cn([C@@H]2O[C@H](CO[Si](C)(C)C(C)(C)C)[C@@]3(NS(=O)(=O)C=C3N)[C@H]2O[Si](C)(C)C(C)(C)C)c(=O)[nH]c1=O,19.1 µM
Cc1cn([C@H]2C=C[C@@H](CO)O2)c(=O)[nH]c1=O,90 µM
N#C/C(=C\c1cc(O)c(O)c(Br)c1)C(=O)NCCCNC(=O)/C(C#N)=C/c1cc(O)c(O)c(Br)c1,113 µM
O=[N+]([O-])c1cc(Cl)c(Cl)cc1[N+](=O)[O-],>100 µM
CC(=O)OC(OC(C)=O)c1ccc2c(c1)COP(=O)(OC[C@@H]1C=C[C@H](n3cc(C)c(=O)[nH]c3=O)O1)O2,99 µM
N#CC(C#N)=Cc1cc(O)c(O)c(O)c1,31.8 µM
COC(=O)[C@H](C)NP(=O)(OC[C@@H]1C=C[C@H](n2cc(C)c(=O)[nH]c2=O)O1)Oc1ccccc1,129 µM
Cc1c(Sc2ccccc2)n(COC(CF)COCc2ccccc2)c(=O)[nH]c1=O,0.05–100 µM
CCCCCCCCCCCCCC(=O)OP(=O)(O)OP(=O)(O)OC[C@@H]1C=C[C@H](n2cc(C)c(=O)[nH]c2=O)O1,>50 µM
O=C(OCC1OC(Sc2nc3cc(Cl)c(Cl)cc3[nH]2)C(OC(=O)c2ccccc2)C1OC(=O)c1ccccc1)c1ccccc1,>100 µM
Nc1ccn([C@@H]2CS[C@H](CO)O2)c(=O)n1,50 µM
Cc1cn([C@H]2C=C[C@@H](CO)O2)c(=O)[nH]c1=O,234 µM
Cc1cn([C@@H]2O[C@H](CO[Si](C)(C)C(C)(C)C)[C@]3(C(N)=CS(=O)(=O)N3C)[C@H]2O[Si](C)(C)C(C)(C)C)c(=O)n(C)c1=O,≥250 µM
N#C/C(=C\c1ccc(O)c(O)c1)C(=O)NCCCc1ccccc1,24.3 µM
Fc1ccc(F)c(C2OCc3nc4ccccc4n32)c1,38 µM
O=c1[nH]c(=O)n([C@H]2C[C@H](F)[C@@H](CO)O2)cc1C#CI,15.1 µM
Cc1cn([C@H]2C=C[C@@H](COP(=O)(O)OP(=O)(O)OP(=O)(O)O)O2)c(=O)[nH]c1=O,>20 µM
Fc1ccc(Cl)c(C2OCc3nc4ccccc4n32)c1,31 µM
C[C@@H](Cn1cnc2c(N)ncnc21)OCP(=O)(O)O,>300 µM
O=c1ccn([C@H]2C[C@H](F)[C@@H](CO)O2)c(=O)[nH]1,>500 µM
Cc1cn([C@H]2C[C@H](N=[N+]=[N-])[C@@H](COP(=O)(O)OP(=O)(O)OP(=O)(O)O)O2)c(=O)[nH]c1=O,>20 µM

The last 5 rows once more:

compound | value
Cc1cn([C@H]2C=C[C@@H](COP(=O)(O)OP(=O)(O)OP(=O)(O)O)O2)c(=O)[nH]c1=O | >20 µM
Fc1ccc(Cl)c(C2OCc3nc4ccccc4n32)c1 | 31 µM
C[C@@H](Cn1cnc2c(N)ncnc21)OCP(=O)(O)O | >300 µM
O=c1ccn([C@H]2C[C@H](F)[C@@H](CO)O2)c(=O)[nH]1 | >500 µM
Cc1cn([C@H]2C[C@H](N=[N+]=[N-])[C@@H](COP(=O)(O)OP(=O)(O)OP(=O)(O)O)O2)c(=O)[nH]c1=O | >20 µM